What all share (assay): pseudovirus neutralization IC50; higher = weaker neutralization
The target of experiment [1] is SARS-CoV-2 Omicron BA.1 spike pseudovirus. Here is the method: (§1)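 Single-round VSV luciferase pseudovirus mixed with antibody dilutions for 1 h and put on Huh-7 cells for about a day; IC50 from the dose curve.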
The target of experiment [2] is SARS-CoV-2 Omicron BA.2 spike pseudovirus. Here is the method:
as §1

Experiment [3] concerns the target SARS-CoV-2 Omicron BA.2.75 spike pseudovirus. Here is the method:
as §1

Experiment [4] concerns the target SARS-CoV-2 Omicron BA.2.75.2 spike pseudovirus. Here is the method: as §1
In experiment [5] the target is SARS-CoV-2 Omicron BA.5 spike pseudovirus. Here is the method:
as §1

For experiment [6], the target named is SARS-CoV-2 Omicron BM.1.1.1 spike pseudovirus. Here is the method:
as §1

The target of experiment [7] is SARS-CoV-2 Omicron BQ.1.1 spike pseudovirus. Here is the method:
as §1

The target in experiment [8] is SARS-CoV-2 Omicron BR.2 spike pseudovirus. Here is the method:
as §1

The target in experiment [9] is SARS-CoV-2 Omicron CA.1 spike pseudovirus. Here is the method: as §1
The target in experiment [10] is SARS-CoV-2 Omicron XBB spike pseudovirus. Here is the method:
as §1

The target of experiment [11] is SARS-CoV-2 early D614G spike pseudovirus. Here is the method: as §1

Substitutions are numbered along the chain they refer to. Human monoclonal antibodies against the spike receptor-binding domain (heavy:light variable regions). IC50 against pseudoviruses bearing the spike of naturally observed variants; lower = stronger; >10 µg/ml means not reached at the top dose. No active / inactive call. The stated detection limit is 0.0005 µg/ml; values near or below 0.001 µg/ml lie at the floor of the assay.

The text below walks through data of the supplement of paper PMC9931576.

B1: BD56-310 (protein)
chain 1: QMELVQSGPEVKKPGTSVKVSCKASGFTFTSSAVQWVRQARGQRLEWIGWIVVGSGNTNYAQKFQERVTITRDMSTSTAYMELSSLRSEDTAVYYCAAGGYYDSSGYSQDYYYGMDVWGQGTTVTVSS
chain 2: DIQMTQSPSSLSASVGDRVTITCQASQDISNYLNWYQQKPGKAPKLLIYDVSSLETGVPSRFTGSGSGTDFTFTISSLQPEDIATYYCQQYDNLSLTFGGGTKVEIK
Regarding B1, the “pseudovirus neutralization IC50” value in experiment [1] was 3.84 µg/mL; in [2], above 10 µg/mL; in [3], above 10 µg/mL; in experiment [4] it was above 10 µg/mL; in experiment [5], above 10 µg/mL; in [6], above 10 µg/mL. Also, the “pseudovirus neutralization IC50” value in [7], in experiment [8], in experiment [9], in experiment [10] and in experiment [11] was above 10 µg/mL in each case.

B2: BD56-822 (protein)
chain 1: EVQLVQSGAEVKKPGESLKISCKGSGYSFTSYWIAWVRQMPGKGLEWMGIIYPGDSDTRYSPSFQGQVTISADKSISTAYLQWSSLKASDTAMYYCARGDSSGYYDYWGQGTLLTVSS
chain 2: B1 chain 2 with V51A, S53N, T63S, S95L
As for B2, the “pseudovirus neutralization IC50” value in experiment [1] was determined as 0.0317 µg/mL; in [2] it was 0.0913 µg/mL; in experiment [3] it was 0.0727 µg/mL; in [4] it was 0.458 µg/mL; in [5], 0.0903 µg/mL; in experiment [6] it was 0.522 µg/mL. Further, the “pseudovirus neutralization IC50” value is above 10 µg/mL in experiment [7]; 0.338 µg/mL in experiment [8]; 0.418 µg/mL in experiment [9]; above 10 µg/mL in experiment [10]; above 10 µg/mL in [11].

B3: BD56-824 (protein)
chain 1: QVQLVQSGAEVKKPGSSVKVSCQASGGTFSSYAISWVRQAPGQGLEWMGGVIPILATANYAQKFQGRVTITADESTSTAYMELSSLRSEDTAVYYCAQRSEMASVWGQGTLVTVSS
chain 2: SYELTQPPSVSVSPGQTASITCSGNKLGDKYAYWYQQKPGQSPVLVIYEDSERPSGIPERFSGSNSGNTATLTISGTQAMDEADYYCQAWDSSTEVFGGGTKLTVL
As to B3, the “pseudovirus neutralization IC50” value in [1] is 0.00174 µg/mL; in experiment [2], 0.000886 µg/mL; in experiment [3] it was 0.000927 µg/mL; in [4], above 10 µg/mL; in experiment [5] it was above 10 µg/mL; in experiment [6], above 10 µg/mL. The “pseudovirus neutralization IC50” value in experiment [7], in [8], in experiment [9], in experiment [10] and in experiment [11] was above 10 µg/mL in each case.

B4: BD56-829 (protein)
chain 1: QVQLVQSGAEVKKPGSSVKVSCKASGGTFSSYAISWVRQAPGQGLEWMGGIIPIFGTANYAQKFQGRVTITADESTSTAYMELSSLRSEDTAVYYCARSTRMVATSRFDYWGQGTLVTVSS
chain 2: DIQMTQSPSSLSASVGDRVTITCQASQDISNYLNWYQQKPGKAPKLLIYDASNLETGVPSRFSGSGSGTDFTFTISSLQPEDIATYYCQQYDNLITFGQGTRLEIK
Turning to B4, the “pseudovirus neutralization IC50” value is 0.0694 µg/mL in experiment [1]; 0.0816 µg/mL in experiment [2]; 0.12 µg/mL in [3]; above 10 µg/mL in experiment [4]; above 10 µg/mL in experiment [5]; above 10 µg/mL in [6]. In addition, the “pseudovirus neutralization IC50” value in experiment [7], in experiment [8], in experiment [9], in experiment [10] and in [11] was above 10 µg/mL throughout.

B5: BD56-813 (protein)
chain 1: EVQLVESGGGLVQPGRSLRLSCTTSGFTFGDFAMSWFRLAPGKGLEWVGFIRRKAYGGTTDYAASVKGRFTISRDDSKSIAYLQMNSLKTEDTAVYYCARVGICSGGSCDQFYYYGMDVWGQGSTVTVSS
chain 2: DIQMTQSPSSLSASVGDRVTITCQASQDSSNYLDWYQQKPGKAPKRLIYDASNLETGVPSRFSGSGSGTDFTFTISSLQPEDIATYYCQQYHDLPITFGQGTRLEIK
Take B5: the “pseudovirus neutralization IC50” value in [1] is 0.00141 µg/mL; in experiment [2] it was 0.0026 µg/mL; in experiment [3], 0.219 µg/mL; in experiment [4], 0.61 µg/mL; in [5], 0.377 µg/mL; in experiment [6], above 10 µg/mL. Also, the “pseudovirus neutralization IC50” value in [7], in [8], in [9], in experiment [10] and in [11] was above 10 µg/mL in each case.

B6: BD56-336 (protein)
chain 1: QVQLQESGPGLVKPSETLSLTCTVSGDSISSYYWSWIRQPPGKGLEWIGYIYYSGSTNYKPSLKSRVTMSVDRSKNQFSLKLSSVTAADTAVYYCARGGDYGDFFDYWGQGILVTVSS
chain 2: DIVMTQSPDSLAVSLGERATINCKSSQSVLYSSNNENYLAWYQQKPGQPPMLLIYWASTRESGVPDRFSGSGSGTDFTLTISSLQAEDVAVYYCQQYYSTPLTFGGGTKVEIK
On to B6, for which the “pseudovirus neutralization IC50” value was 0.000802 µg/mL in experiment [1]; above 10 µg/mL in [2]; above 10 µg/mL in [3]; above 10 µg/mL in experiment [4]; above 10 µg/mL in experiment [5]; above 10 µg/mL in experiment [6]. The “pseudovirus neutralization IC50” value in experiment [7], in [8], in [9], in experiment [10] and in [11] was above 10 µg/mL each time.

B7: BD56-816 (protein)
chain 1: QVQLLESGPGLVKPSQTLSLTCTVSGGSISSGAYYWNWIRQLPGKGLEWIGYIYDSGSTYYNPSLKSRVTISVDTSKNQFSLKLSSVTAADTAVYYCARDKVAGLDYGDLYAFDIWGQGTMVTVSS
chain 2: B6 chain 2 with N34D, E36K, M51K, S99N, T100I, L102R, G106Q, V110L
In the case of B7, the “pseudovirus neutralization IC50” value in experiment [1] was 0.00299 µg/mL; in experiment [2], above 10 µg/mL; in experiment [3], above 10 µg/mL; in experiment [4], above 10 µg/mL; in [5], above 10 µg/mL; in experiment [6], above 10 µg/mL. Besides, the “pseudovirus neutralization IC50” value in [7], in experiment [8], in experiment [9], in experiment [10] and in [11] was above 10 µg/mL throughout.

B8: BD56-266 (protein)
chain 1: QVQLVQSGAEVKKPGASVKVSCKVSGYTLTELSMHWVRQVPGKGLEWMGGFDPVDGEAIYAQTFQGRVTMTEDTSTDTAYMELSSLRSEDTAVYYCATAWVAPFDYWGQGTLVTVSS
chain 2: EIVMTQSPATLSVSPGERATLSCRASQSISSNLAWYQQKPGQAPRLLIYGASTRATGIPARFSGSGSGTEFTLTISSLQSEDFAVYYCQQYDNWPWTFGQGTKVEIK
With B8, the “pseudovirus neutralization IC50” value in experiment [1] was 0.00335 µg/mL; in experiment [2], 0.0347 µg/mL; in experiment [3], above 10 µg/mL; in experiment [4], above 10 µg/mL; in experiment [5], above 10 µg/mL; in experiment [6], above 10 µg/mL. Also, the “pseudovirus neutralization IC50” value in experiment [7], in experiment [8], in experiment [9], in [10] and in experiment [11] was above 10 µg/mL throughout.

B9: BD56-776 (protein)
chain 1: EVQLVESGGGLVQPGGSLRLSCAASGFTVTSNYMNWVRQAPGKGLEWVSIIYSGGRTNYADSVKGRFTISRDNSENTLYLQMNSLRDEDTAVYYCARLDWHTGFDPWGQGTLVTVSS
chain 2: SSVLTQPPSVSVAPGQAARITCGGNNIGSDSVHWYQQKPGQAPVLVVYDDTDRPSGIPERFSGSKSGNTATLTISRVEAGDEADYYCQVWDSSSDHPVVFGGGTKLTVL
As for B9, the “pseudovirus neutralization IC50” value in [1] is 0.0233 µg/mL; in experiment [2], 0.0302 µg/mL; in [3], above 10 µg/mL; in experiment [4], above 10 µg/mL; in experiment [5], above 10 µg/mL; in [6], above 10 µg/mL. Further, the “pseudovirus neutralization IC50” value in experiment [7], in experiment [8], in experiment [9], in [10] and in experiment [11] was above 10 µg/mL in each case.

B10: BD56-812 (protein)
chain 1: QVTLRESGPALVKPTQTLTLTCTFSGFSLSTSGMCVTWIRQPPGKALEWLALIDWDDDKYYSTSLKTRLTISKDTSKNQVVLTMTNMDPVDTATYYCARIVGDFYYYGMDVWGQGTTVTVSS
chain 2: SYELTQPPSVSVSPGQTARITCSGDSLPNQFAYWYQQKPGQAPVLVIYKDSERPSEIPERFSGSSSGTTVTLTISGVQAEDEADYYCQSTDSNRTPVIFGGGTTLTVL
For B10, the “pseudovirus neutralization IC50” value in experiment [1] amounted to 0.00329 µg/mL; in experiment [2] it was 0.144 µg/mL; in [3] it was 0.137 µg/mL; in experiment [4] it was 0.184 µg/mL; in [5] it was 0.121 µg/mL; in experiment [6], 0.137 µg/mL. Moreover, the “pseudovirus neutralization IC50” value is 7.19 µg/mL in experiment [7]; 0.163 µg/mL in experiment [8]; 0.138 µg/mL in [9]; above 10 µg/mL in experiment [10]; above 10 µg/mL in experiment [11].
